From paper PMC2722786

Experiments:
CC(=O)NCCSC(=O)c1ccccc1 = assay: purified protein; settings: hydrolysis, no butanol or other exogenous nucleophile
[1] = tested on: CCC(=O)C(C)C(=O)SCCNC(C)=O; assay: purified protein; settings: hydrolysis; rate not dependent on butanol

“Zea TE (thioesterase from PKS13) (Fusarium graminearum PH-1)” was tested, and the Km (CC(=O)NCCSC(=O)c1ccccc1) was 78 ± 8 µM, the kcat (CC(=O)NCCSC(=O)c1ccccc1) was 1.18 ± 0.03 s⁻¹ and the Km [1] was 4400 ± 1000 µM. For the same substance, the kcat [1] was 0.39 ± 0.05 s⁻¹.
